Results of unrelated studies side by side (data: NIAID ChemDB).

All rows: growth or infection tests; species: Candida albicans; measure: MIC

Rows are shuffled and stem from different studies.

structure	strain or isolate	read by	conditions	result
O=C1C(Sc2ccc(Cl)cc2)=C(Sc2ccc(Cl)cc2)C(=O)c2c(O)cccc21				4 µg/mL
OC(Cn1cncn1)(Cn1cncn1)c1ccc(F)cc1F	YL 353	broth dilution		>512 µg/mL
CC(=O)O[C@@H]1C[C@@]23C(=O)OC[C@](C)([C@@H]2CC[C@H]2C3=CC[C@@]3(C)[C@H](C(=O)O)[C@@](C)([C@H](C)C(C)C)CC[C@]23C)[C@H]1O[C@@H]1O[C@H](CO)[C@@H](O)[C@H](O)[C@H]1O	MY2301			0.5 µg/mL
Cc1ccc(SC2=CC(=O)c3c(O)cccc3C2=O)cc1				4 µg/mL
Brc1cc(Br)c2ncnc(NCCNc3nc(NC4CC4)nc(N4CCN(c5ccccc5)CC4)n3)c2c1	MTCC 183	agar		100 µg/mL
CCCCCCCCCCNC1CCc2cccc(O)c2C1				1 µM
C[C@H]1[C@H](O)[C@@H](C)/C=C/C=C/C=C/C=C/C=C/C=C/C=C/[C@H](O[C@@H]2O[C@H](C)[C@@H](O)[C@H](N)[C@@H]2O)C[C@@H]2O[C@](O)(C[C@@H](O)C[C@@H](O)CC[C@H](O)[C@@H](O)C[C@@H](O)CC(=O)O[C@H]1C)C[C@H](O)[C@H]2C(=O)O	MY1055			0.3 µg/mL
CC1CC(C)CN(c2nc(NCCNc3ncnc4c(Br)cc(Br)cc34)nc(NC3CC3)n2)C1	MTCC 183	agar		100 µg/mL
O=C1NC(=S)SC1C(Sc1ccccc1)c1ccc(Br)cc1	ATCC 2091	broth dilution		32 µg/mL
COc1ccc(C(=O)O)cc1	ATCC 90028	XTT	biofilm	4000 µg/mL
Clc1ccc(C(c2ccccc2)N2CCN(CCn3cncn3)CC2)cc1	ATCC 76615	broth dilution		100 µg/mL
Cc1sc2c(C)c(Nc3cccnc3Cl)ccc2c1C	CECT 1394			25 µg/mL
Fc1ccc(N2CCN(c3nc(Cl)nc(NC4CC4)n3)CC2)cc1	MTCC 183	agar		100 µg/mL
O=C1NC(=S)S/C1=C\c1ccco1	ATCC 2091	broth dilution		64 µg/mL
CCC(C)CC(C)CCCCCCCCC(=O)N[C@H]1C[C@@H](O)[C@H](NCCN)NC(=O)[C@@H]2[C@@H](O)CCN2C(=O)[C@H]([C@H](O)CCN)NC(=O)[C@H]([C@H](O)[C@@H](O)c2ccc(O)cc2)NC(=O)[C@@H]2C[C@@H](O)CN2C(=O)[C@H]([C@@H](C)O)NC1=O	MY2301			0.5 µg/mL
O=C1NC(=S)S/C1=C\c1cccs1	ATCC 2091	broth dilution		64 µg/mL
O=C(O)c1ccccc1O	ATCC 90028	XTT	biofilm	2000 µg/mL
Cc1sc2c(C)c(Nc3ccccc3Cl)ccc2c1C	CECT 1394			50 µg/mL
CCN(CC)N1C(=O)C(C(Sc2ccccc2)c2ccc(Cl)cc2)SC1=S	ATCC 2091	broth dilution		32 µg/mL
O=C(O)/C=C/c1ccccc1	ATCC 90028	XTT	biofilm	4000 µg/mL
COc1ccc(Cl)c(Nc2ccc3c(C)c(C)sc3c2C)c1	CECT 1394			25 µg/mL
Cc1nc([N+](=O)[O-])cn1CC(=O)CN1CCN(C(c2ccccc2)c2ccc(Cl)cc2)CC1	ATCC 76615	broth dilution		100 µg/mL
CCCCCCCCCCNC1CCc2cc(O)ccc2C1				0.03125 µM
O=C1C(Sc2ccc(F)cc2)=C(Sc2ccc(F)cc2)C(=O)c2c(O)cccc21				2 µg/mL
Cc1ccc2nc(F)c(C3C(C#N)=C(N)N(c4nc(-c5ccccc5)cs4)C4=C3C(=O)CCC4)cc2c1	MTCC 227	broth dilution		1000 µg/mL
CN1CCN(c2nc(NCCNc3ncnc4c(Br)cc(Br)cc34)nc(NC3CC3)n2)CC1	MTCC 183	agar		100 µg/mL
OC(CN1CCN(C(c2ccccc2)c2ccc(Cl)cc2)CC1)Cn1cncn1	ATCC 76615	broth dilution		100 µg/mL
O=C1C(Sc2ccc(F)cc2)=CC(=O)c2c(O)cccc21				2 µg/mL
CCOC(=O)C1=C(N)N(c2nc(-c3ccccc3)cs2)C2=C(C(=O)CCC2)C1c1cc2cc(Cl)ccc2nc1F	MTCC 227	broth dilution		250 µg/mL
COc1cccc2c1C(=O)C=C(Sc1cccc(F)c1)C2=O				32 µg/mL
Clc1cccc(N2CCN(c3nc(NCCNc4ncnc5c(Br)cc(Br)cc45)nc(NC4CC4)n3)CC2)c1Cl	MTCC 183	agar		50 µg/mL
Clc1ccc(C(c2ccccc2)N2CCN(Cc3nc4ccccc4[nH]3)CC2)cc1	ATCC 76615	broth dilution		25 µg/mL
Clc1ccc(COC(Cn2ccnc2)c2ccc(Cl)cc2Cl)c(Cl)c1	505			4 µg/mL
CN(C/C=C/C#CC(C)(C)C)Cc1cccc2ccccc12	ATCC 24433			1 µg/mL
CCCCCCCCCNC1CCc2cccc(OC)c2C1				0.25 µM
CCOC(=O)C1=C(N)N(c2nc(-c3ccccc3)cs2)C2=C(C(=O)CCC2)C1c1cc2cc(C)ccc2nc1F	MTCC 227	broth dilution		250 µg/mL
O=c1[nH]cnc2c1ncn2[C@H]1CC[C@@H](CO)O1	MTCC 183	agar		200 µg/mL
O=C1C=C(Sc2ccc(Cl)cc2)C(=O)c2c(O)cccc21				4 µg/mL
C[C@H]1[C@H](O)[C@@H](C)/C=C/C=C/C=C/C=C/C=C/C=C/C=C/[C@H](O[C@@H]2O[C@H](C)[C@@H](O)[C@H](N)[C@@H]2O)C[C@@H]2O[C@](O)(C[C@@H](O)C[C@@H](O)CC[C@H](O)[C@@H](O)C[C@@H](O)CC(=O)O[C@H]1C)C[C@H](O)[C@H]2C(=O)O	505			<2 µg/mL
COc1ccc2nc(F)c(C3C(C#N)=C(N)N(c4nc(-c5ccc(O)cc5)cs4)C4=C3C(=O)CCC4)cc2c1	MTCC 227	broth dilution		500 µg/mL
CC(C)[C@@H](C)/C=C/[C@@H](C)[C@H]1CCC2=C3[C@@H](O)C4OC45C[C@@H](OC(=O)[C@@H](N)[C@@H](OS(=O)(=O)O)C(C)C)CC[C@]5(C)[C@H]3CC[C@@]21C(=O)O	MY2301			2 µg/mL
Clc1ccccc1C(c1ccccc1)(c1ccccc1)n1ccnc1	505			<2 µg/mL
OC(Cn1cncn1)(Cn1cncn1)c1ccc(F)cc1F	ATCC 24433			0.5 µg/mL
Cc1ccc2nc(F)c(C3C(C#N)=C(N)N(c4nc(-c5ccc(Cl)cc5)cs4)C4=C3C(=O)CCC4)cc2c1	MTCC 227	broth dilution		500 µg/mL
CCCCCCCCNC1CCc2cccc(OC)c2C1				1 µM
O=C1C=CC(=O)c2c(O)cccc21				16 µg/mL
O=C(CCl)N1CCN(C(c2ccccc2)c2ccc(Cl)cc2)CC1	ATCC 76615	broth dilution		25 µg/mL
O=C1C(Sc2ccccc2F)=CC(=O)c2c(O)cccc21				2 µg/mL
Cc1cc2ncn(CC(=O)N3CCN(C(c4ccccc4)c4ccc(Cl)cc4)CC3)c2cc1C	ATCC 76615	broth dilution		25 µg/mL
N#CC1=C(N)N(c2nc(-c3ccc(O)cc3)cs2)C2=C(C(=O)CCC2)C1c1cc2ccccc2nc1F	MTCC 227	broth dilution		500 µg/mL
COc1ccc2c(c1)CC(NCc1ccccc1)CC2				30 µM
CCOC(=O)C1=C(N)N(c2nc(-c3ccccc3O)cs2)C2=C(C(=O)CCC2)C1c1cc2ccccc2nc1F	MTCC 227	broth dilution		1000 µg/mL
CCC(C)n1ncn(-c2ccc(N3CCN(c4ccc(OC[C@H]5CO[C@](Cn6cncn6)(c6ccc(Cl)cc6Cl)O5)cc4)CC3)cc2)c1=O	ATCC 24433			0.06 µg/mL

Repeating the final 4 entries:

structure	strain or isolate	read by	conditions	result
N#CC1=C(N)N(c2nc(-c3ccc(O)cc3)cs2)C2=C(C(=O)CCC2)C1c1cc2ccccc2nc1F	MTCC 227	broth dilution		500 µg/mL
COc1ccc2c(c1)CC(NCc1ccccc1)CC2				30 µM
CCOC(=O)C1=C(N)N(c2nc(-c3ccccc3O)cs2)C2=C(C(=O)CCC2)C1c1cc2ccccc2nc1F	MTCC 227	broth dilution		1000 µg/mL
CCC(C)n1ncn(-c2ccc(N3CCN(c4ccc(OC[C@H]5CO[C@](Cn6cncn6)(c6ccc(Cl)cc6Cl)O5)cc4)CC3)cc2)c1=O	ATCC 24433			0.06 µg/mL

An empty or dashed field is not shown.